Reference: the supplement of paper PMC9931576
Human monoclonal antibodies against the spike receptor-binding domain (heavy:light variable regions). IC50 against pseudoviruses bearing the spike of naturally observed variants; lower = stronger; >10 µg/ml means not reached at the top dose. No active / inactive call. The stated detection limit is 0.0005 µg/ml; values near or below 0.001 µg/ml lie at the floor of the assay.

B1: BD55-6441 (protein)
chain 1: QVQLVQSGAEVKKPGGSMKVSCKTSGYPFTDYYMHWVRQAPGQGLEWMGWINPKSGDTSYAHDFQDRVTMSRDTSINTVYMEVNSLRSDDTAVYYCARDGGGGGWNDFNWFDSWGQGTLVAVSS
chain 2: AIRMTQSPSSFSAFTGDRVTITCRASQDIGSYLAWYQQKPGKAPKVLIYAASTLYSGVPSRFSGSGSGTEFSLTISRLQSEDFATYYCQQYYSYPYTFGQGTKLELK
B2: BD55-6448 (protein)
chain 1: EVQLLESGGGLVQPGGSLRLSCAASGFPFDNYAMTWVRQAPGKGLEWVSSISGSGDVTYFIDSLKGRFTISRDNSENTLYLQMTGLRAEDTAVYYCAKDHLRRVYYYDTSGFDYWGHGTLVTVSS
chain 2: QSVLTQPPSVSGAPGQRVTISCTGSSSNIGSYYDVHWYQHLPGTAPKLLIFGTVNRPSGVPDRFSGSKSGTSASLTITGLQAEDEADYYCQSFDSSLTLLFGGGTRLTVL
B3: BD55-6444 (protein)
chain 1: QVQLVQSGAEVKKPGASVKVSCKASGYTFIRFHMHWVRQAPGQGLEWMGRINPSDGSTSYAQTFQGRVTMTRDTSATTVYMEVRSLRSEDTAVYFCARDAEIQLWPNVVDSWGQGTLVTVSS
chain 2: DIQMTQSPSSLSASVGDRVTITCRASQSISYYVHWYQHKPGKAPKLLIYAASNLQSGVPSRFSGSGSGTDFTLTISSLQPEDFATYFCQQTYTTLLTFGGGTKVEIK
B4: BD55-6412 (protein)
chain 1: EVQLVESGGVLVQPGRSLRLSCTTSGFIFGDYGMTWVRQAPGKGLEWVGFIRTKAYGGTTEYAASVKGRFTISRDDSESIAYLQMDSLKTEDTAVYYCAREMTTLKYYYYAFDVWGRGTTVTVSS
chain 2: DIQLTQSPSSLSAAVGDRVTITCRASQSISYNLNWYHQKPGQAPKLLIYAASSLQSGVPSRFSGSGSGTDFTLTISSLQPEDFATFYCQHSYTTLTTFGPGTKVDIK
B5: BD55-6425 (protein)
chain 1: EVQLVQSRAGLKKPGESLKISCKGSGYNFNDYWIAWVRQMPGKGPEWMGLVYPGDSDTRYSPSFQGQVTFSADKSINTAYLQWNSLRASDTATYYCARHGGPLRHIDWQNHGMDVWGQGTAVTVSS
chain 2: DIHMTQSPSSLSASVGDRVTITCRASQTIGTYLHWYQQKPGNAPKLLIYAASSLQSGVPSRFRGAGSGTDFTLTISGLQPEDFATYFCQQSYSTPTWTFGQGTKVELK
B6: BD55-1242 (protein)
chain 1: EVQLVESGGGLVQPGGSVKLSCAASGFTFSSDDMHWVRQVTGKSLEWVSGTGTSGDTYYLDSVKGRFTISRENAKNSVYLQMNNLGAGDTAVYFCVRGRSSGLYYYFDFWGQGTLVTVSS
chain 2: DIQMTQSPSSLSASVGDRVTITCRASQTISRYLNWYQQKPGKAPKLLIYAASNLQSGVPSRFSGSGSGTDFTLSISSLQPEDFATYYCQQSYSSPPWTFGPGTKVEIK
B7: BD55-6426 (protein)
chain 1: QVEMVESGGGLVKPGGSLRLSCAASGFIFSVYDMNWVRQSPGKGLEWISYISSSGDTTFYADSVKGRFTISRDNAKNSLSLQMNSLRAEDTAVYYCAREKKGYNYGYPTLDHWGLGILVTVSS
chain 2: DIEMTQSPSSLSASVGDRVTISCRASQSISFYVNWYQQKPGKAPKLLIYTASTLQTGVPSRFSGSGSGTDFTLTISSLQPDDFATYYCQQTYTTPPPPLTFGGGTRVEFK
B8: BD55-6452 (protein)
chain 1: VQLVQSGADVKEPGASVKVSCKTSGYAFSTYDIVWVRQVTGQRLEWMGWMNPKSGDTGYAHKFQGRVTMTRDTSTSTAYLELSSLTSEDTAIYYCAREEDGVVRGFRRFDPWGQGTLVTVSS
chain 2: DIQLTQSPSSLSASVGDRVTITCRASQNINNNLNWYQQKPGNAPKLLIYTTSSLQSGVPSRFSGGGSGTDFTLTINSLQPGDFATYYCQQSYSTSYSFGQGTRLEIK
B9: BD55-6442 (protein)
chain 1: QVQLVQSGAEVKKPGASVKVSCKASGYTFTSHDINWVRQATGQGLEWMGWMNPISGDTGYAQKFQGRVMMTRDTSISTAYMELSSLRSDDTAVYYCARGYPYYDMLTGVSHYYYGLDVWGQGTTVTVSS
chain 2: DIQMTQSPSSLSASVGDRVTITCRASQGISNSLAWFQQKPGKAPKSLIYGASSLQSGVPSKFSGSGSGTDFTLTISSLQPEDFATYYCQQYNSYPLTFGGGTKVEIK
B10: BD55-6419 (protein)
chain 1: QVQLQESGPGLVKPSETLSLTCTVSGASITNYFWSWIRQPPGKGLEYIGYIYYSGRTNYNPSLRSRLTISLDTSKNQFSLKLSSVTAADTAVYFCARGFIAASDDAFDIWGQGTMVTVSS
chain 2: QSALTQPASVSGSPGQSITISCTGASSDVGGYNYVSWYQQHPGKAPKLMIYDVNNRPSGVSDRFSGSKSGNTASLTISGLQAEDEADYYCSSYTGSSVVFGGGTKLTVL
B11: BD55-6428 (protein)
chain 1: QVQLVQSGAEAKKPGASVKLSCRASGYNLTSFHINWVRQAPGKGLEWVGIINPSDGTARYAQEFQGRVTMSRDTSTSTVYLDVRSLRSEDSAFYYCAREVYYGVGFYVFDYWGQGTLVTVS
chain 2: DIQMTQSPSSLSASVGDRVTITCRASQSISTYVNWYEQKPGKAPNLLIYEASRLQSGVPSRFSGSGSGTEFSLTISSLQPEDFVTFYCQQSYSTPYTFGQGTRLEI
B12: BD55-1244 (protein)
chain 1: QVQLVESGGGVVQPGKSLRLSCTASGFTFSTYAMHWVRQVPGKGLEWVAVILYDGSLKLYSDSVKGRFTISRDNSKNTLFLEMNNLRAEDTAVYYCARDQGEMTTHFDLWGLGTLVTVSS
chain 2: DIQMTQSPSSLPASVGDRITITCRASQSIAKFLNWYQQKPGKAPQLLIYDASTLQSGVPSRFSGSGSGTDFTLTVSSLQPEDFATYYCQQSYNTPPWTFGQGTRVEIK

How the values were obtained:
Experiment in all cases: pseudovirus neutralization IC50; higher = weaker neutralization
[1] = target: SARS-CoV-2 Omicron BA.1 spike pseudovirus
Experimental: (§1)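 Single-round VSV luciferase pseudovirus mixed with antibody dilutions for 1 h and put on Huh-7 cells for about a day; IC50 from the dose curve.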

[2] = target: SARS-CoV-2 Omicron BA.2 spike pseudovirus
Experimental: as §1

[3] = target: SARS-CoV-2 Omicron BA.2.75 spike pseudovirus
Experimental: as §1

[4] = target: SARS-CoV-2 Omicron BA.5 spike pseudovirus
Experimental: as §1

[5] = target: SARS-CoV-2 Omicron BQ.1.1 spike pseudovirus
Experimental: as §1

[6] = target: SARS-CoV-2 Omicron XBB spike pseudovirus
Experimental: as §1

[7] = target: SARS-CoV-2 early D614G spike pseudovirus
Experimental: as §1

Binder | pseudovirus neutralization IC50 [1] | pseudovirus neutralization IC50 [2] | pseudovirus neutralization IC50 [3] | pseudovirus neutralization IC50 [4] | pseudovirus neutralization IC50 [5] | pseudovirus neutralization IC50 [6] | pseudovirus neutralization IC50 [7]
B1 | > 10 µg/mL | > 10 µg/mL | > 10 µg/mL | > 10 µg/mL | > 10 µg/mL | > 10 µg/mL | > 10 µg/mL
B2 | > 10 µg/mL | > 10 µg/mL | > 10 µg/mL | > 10 µg/mL | > 10 µg/mL | > 10 µg/mL | > 10 µg/mL
B3 | > 10 µg/mL | > 10 µg/mL | > 10 µg/mL | > 10 µg/mL | > 10 µg/mL | > 10 µg/mL | > 10 µg/mL
B4 | > 10 µg/mL | > 10 µg/mL | > 10 µg/mL | > 10 µg/mL | > 10 µg/mL | > 10 µg/mL | > 10 µg/mL
B5 | > 10 µg/mL | > 10 µg/mL | > 10 µg/mL | > 10 µg/mL | > 10 µg/mL | > 10 µg/mL | > 10 µg/mL
B6 | > 10 µg/mL | > 10 µg/mL | > 10 µg/mL | > 10 µg/mL | > 10 µg/mL | > 10 µg/mL | > 10 µg/mL
B7 | > 10 µg/mL | > 10 µg/mL | > 10 µg/mL | > 10 µg/mL | > 10 µg/mL | > 10 µg/mL | > 10 µg/mL
B8 | > 10 µg/mL | > 10 µg/mL | > 10 µg/mL | > 10 µg/mL | > 10 µg/mL | > 10 µg/mL | > 10 µg/mL
B9 | > 10 µg/mL | > 10 µg/mL | > 10 µg/mL | > 10 µg/mL | > 10 µg/mL | > 10 µg/mL | > 10 µg/mL
B10 | > 10 µg/mL | > 10 µg/mL | > 10 µg/mL | > 10 µg/mL | > 10 µg/mL | > 10 µg/mL | > 10 µg/mL
B11 | > 10 µg/mL | > 10 µg/mL | > 10 µg/mL | > 10 µg/mL | > 10 µg/mL | > 10 µg/mL | > 10 µg/mL
B12 | > 10 µg/mL | > 10 µg/mL | > 10 µg/mL | > 10 µg/mL | > 10 µg/mL | > 10 µg/mL | 0.991 µg/mL
